Anti-infective test results gathered from many reports (values: NIAID ChemDB through PubChem).

Shared fields: growth or infection tests; species: Candida tropicalis; read-out: MIC

Blank or dashed fields: not listed here.

COc1ccc(/C=N/NC(=O)c2ccc(CNc3nc4ccccc4[nH]3)cc2)cc1 ; read by: broth dilution ; value: 50 µg/mL
Cc1ccc(/C=N/Nc2ccnc3cc(Cl)ccc23)cc1 ; value: 80 µg/mL
O=C(CCn1ccnc1)c1ccc(Br)cc1 ; strain or isolate: RTCC 1065 ; read by: broth dilution ; value: >64 µg/mL
Nc1[nH]c(=O)ncc1F ; read by: broth dilution ; value: 3.2 µg/mL
COC(=O)[C@H]1[C@@H]2C[C@@H](O[C@@H]3O[C@H](C)[C@@H](O)[C@H](N)[C@@H]3O)/C=C/C=C/C=C/C=C/C=C/C=C/C=C/[C@H](C)[C@@H](O)[C@H](C)[C@H](C)OC(=O)C[C@H](O)C[C@H](O)[C@@H](O)CC[C@H](O)C[C@H](O)C[C@](O)(C[C@@H]1O)O2 ; strain or isolate: Isolate 93-681 fluconazole-susceptible ; value: <0.25 µg/mL
O=C(N/N=C/c1ccc(F)cc1)c1ccc(CNc2nc3ccccc3[nH]2)cc1 ; read by: broth dilution ; value: 100 µg/mL
CCCCCCCCCCCCCCCC(=O)NC(CCCCN)C(=O)NC(CCCCN)C(N)=O ; strain or isolate: 4795 ; read by: broth dilution ; value: 2 µg/mL
COC(=O)c1ccc(N2C(=O)C(OC(C)=O)C2c2ccc(C)cc2)cc1 ; strain or isolate: CP/K92 ; value: 35.41 µM
O=C(O[C@@H]1COC(=O)c2cc(O)c(O)c(O)c2-c2c(cc(O)c(O)c2O)C(=O)OC1C1OC(=O)c2cc(O)c(O)c(O)c2-c2c(O)c(O)c(O)c3c2C(=O)OC1[C@H]3O)c1cc(O)c(O)c(O)c1 ; strain or isolate: ATCC 750 ; read by: broth dilution ; value: 145 µg/mL
N=C(N)c1ccc(OCCCCCCOc2ccc(C(=N)N)cc2)cc1 ; strain or isolate: Ct2 ; read by: agar diffusion / agar ; value: 26 µg/mL
CCCCCCCCCCCCCCCC(=O)NCCCCN ; strain or isolate: ATCC 750 ; read by: broth dilution ; value: 16 µg/mL
COc1ccc(-c2cc(=O)c3c(O)c([C@@H]4O[C@H](CO)[C@@H](O)[C@H](O)[C@H]4O)c(O)cc3o2)cc1O ; strain or isolate: ATCC 750 ; read by: broth dilution ; value: >500 µg/mL
CC(C)CC1NC(=O)CC(CCCCCCCCC(C)O)OC(=O)C(CC(C)C)NC(=O)C(CC(C)C)NC(=O)C(CC(C)C)NC(=O)C(C(C)C)NC(=O)C(CC(=O)O)NC(=O)C(CC(C)C)NC1=O ; strain or isolate: MTCC 1406 ; read by: absorbance ; value: 2 µg/mL
CCCCC[C@@H]1OCO[C@@]2(C)/C=C(C)/C=C/C(=O)O[C@H]([C@@H](C)[C@@H](O)[C@H](C)[C@@]3(O)C[C@@H](O[C@H]4C[C@@H](O)[C@H](O)[C@@H](C)O4)[C@H](C)[C@@H](C)O3)[C@@H](OC)/C=C/C=C(\C)C[C@H]1[C@@H]2O ; strain or isolate: F-1 ; value: >100 µg/mL
C[C@@H](c1ncncc1F)[C@](O)(Cn1cncn1)c1ccc(F)cc1F ; strain or isolate: 559-6.9 ; value: 0.06 µg/mL
CC(=O)OC1C(=O)N2CCCS(=O)(=O)C12c1ccccc1 ; strain or isolate: CP/K92 ; value: 9.7 µM
O=C(O)c1ccc(/C=N/NC(=O)c2ccc(CNc3nc4ccccc4[nH]3)cc2)cc1 ; read by: broth dilution ; value: 25 µg/mL
COc1cc(O)c2c(c1)C(=O)c1c(cc3c(c1O)-c1c(cc(C)c(C(=O)NC(CO)C(=O)O)c1O)[C@H](OC1OC(C)C(N(C)C)C(OC4OCC(O)C(O)C4O)C1O)[C@H]3O)C2=O ; strain or isolate: IFO 10241 ; value: 6.3 µg/mL
COc1ccc(N2C(=O)C(OC(C)=O)C2c2ccccc2)cc1 ; strain or isolate: CP/K92 ; value: 40.19 µM
Clc1ccc(C(Cn2ccnc2)OCc2csc3c(Cl)cccc23)c(Cl)c1 ; strain or isolate: 65 isolates ; setting: 48 h ; value: >8 µg/mL
OC(CCn1ccnc1)c1cccc(C(O)c2ccc(Br)cc2)c1 ; strain or isolate: RTCC 1095 ; read by: broth dilution ; value: >64 µg/mL
O=C(N/N=C/c1ccc(O)cc1)c1ccc(CNc2nc3ccccc3[nH]2)cc1 ; read by: broth dilution ; value: 50 µg/mL
O=C(CCn1ccnc1)c1cccc(C(O)c2ccc(Cl)cc2)c1 ; strain or isolate: RTCC 1065 ; read by: broth dilution ; value: 64 µg/mL
COC(=O)c1ccc(N2C(=O)C(OC(C)=O)C2c2ccccc2)cc1 ; strain or isolate: CP/K92 ; value: 17.69 µM
O=c1[nH][nH]c2c1C(c1ccccc1)CC(c1ccc3ccccc3c1)=C2 ; value: 25 µg/mL
CC(C)(O)c1cn(-c2ccc(Cl)cc2)nn1 ; strain or isolate: URM 4262 ; read by: broth dilution ; value: 128 µg/mL
O=C1C2=C(OC(CI)C2)C(=O)c2ccccc21 ; strain or isolate: Clinical isolate ; read by: broth dilution ; value: 64 µg/mL
O=C1c2ccccc2CC1Cn1ccnc1 ; strain or isolate: RTCC 1065 ; read by: broth dilution ; value: >64 µg/mL
Cc1c(NC(=O)CSC(=S)N2CCCCC2C)c(=O)n(-c2ccccc2)n1C ; strain or isolate: KUEN 1021 ; value: 12.5 µg/mL
O=C1C(O)C(c2ccccc2)N1c1ccccc1 ; strain or isolate: CP/K92 ; value: 25.09 µM
CCC(C)CC(C)CCCCCCCCC(=O)N[C@H]1C[C@@H](O)[C@H](NCCN)NC(=O)[C@@H]2[C@@H](O)CCN2C(=O)[C@H]([C@H](O)CCN)NC(=O)[C@H]([C@H](O)[C@@H](O)c2ccc(O)cc2)NC(=O)[C@@H]2C[C@@H](O)CN2C(=O)[C@H]([C@@H](C)O)NC1=O ; strain or isolate: 10 isolates ; value: 50 µg/mL
CN(C)c1ccc(/C=N/NC(=O)c2ccc(CNc3nc4ccccc4[nH]3)cc2)cc1 ; read by: broth dilution ; value: 50 µg/mL
C[C@@H]1CC[C@]2(C(=O)O)CC[C@]3(C)C(=CCC4[C@@]5(C)C[C@@H](O)[C@H](O)[C@@](C)(CO)C5CC[C@]43C)C2[C@H]1C ; read by: agar ; value: 256 µg/mL
O=C(N/N=C/c1ccccc1)c1ccc(CNc2nc3ccccc3[nH]2)cc1 ; read by: broth dilution ; value: 25 µg/mL
CCC(C)CC(C)CCCCCCCCC(=O)N[C@H]1C[C@@H](O)[C@H](NCCN)NC(=O)[C@@H]2[C@@H](O)CCN2C(=O)[C@H]([C@H](O)CCN)NC(=O)[C@H]([C@H](O)[C@@H](O)c2ccc(O)cc2)NC(=O)[C@@H]2C[C@@H](O)CN2C(=O)[C@H]([C@@H](C)O)NC1=O ; strain or isolate: MY1163 ; value: 0.25 µg/mL
O=C(CCn1ccnc1)c1cccc2ccccc12 ; strain or isolate: RTCC 1065 ; read by: broth dilution ; value: >64 µg/mL
Cc1ccc(C2CC(c3ccc4ccccc4c3)=Cc3[nH][nH]c(=O)c32)cc1 ; value: 100 µg/mL
Cc1ccc(C(O)c2cccc(C(=O)CCn3ccnc3)c2)cc1 ; strain or isolate: RTCC 1095 ; read by: broth dilution ; value: >64 µg/mL
O=C(N/N=C/c1ccc(C(F)(F)F)cc1)c1ccc(CNc2nc3ccccc3[nH]2)cc1 ; read by: broth dilution ; value: 25 µg/mL
CCCCCCCCCCCC[n+]1cccc2ccccc21 ; strain or isolate: 156 ; read by: broth dilution ; setting: 24 h ; value: 0.01562 µg/mL
OC(CCn1ccnc1)c1cccc(C(O)c2ccc(Cl)c(Cl)c2)c1 ; strain or isolate: RTCC 1095 ; read by: broth dilution ; value: >64 µg/mL

Repeating the first 3 entries:

structure | strain or isolate | read by | setting | value
COc1ccc(/C=N/NC(=O)c2ccc(CNc3nc4ccccc4[nH]3)cc2)cc1 | - | broth dilution | - | 50 µg/mL
Cc1ccc(/C=N/Nc2ccnc3cc(Cl)ccc23)cc1 | - | - | - | 80 µg/mL
O=C(CCn1ccnc1)c1ccc(Br)cc1 | RTCC 1065 | broth dilution | - | >64 µg/mL

Neighbouring rows are from separate reports.